# Values from PubChem BioAssay AID1259414 (Drosophila RNAi Screening Center, 2018)
# Assay: 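Fly genes that alter Wolbachia amount inside host cells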 (primary screen)
# Cells: Drosophila JW18 cells infected with Wolbachia
# Reagents: long dsRNA against Drosophila genes, 0.25 µg dsRNA per well of a 384-well plate
# Duration: 5 days
# Conditions: cells persistently infected with Wolbachia before knock-down; no added drug
# Measurement: 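Automated imaging of bacterial rRNA staining divided by host cell count, reported as plate-normalised robust z-score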
# Direction: Wolbachia per cell robust z: higher = more Wolbachia per host cell than the plate typical
# Call rule: 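Hit when robust z is 1.5 or more, or -1.5 or less, in at least two of three replicates; excludes dsRNAs with several or no targets, genes not expressed in JW18 and well A1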
# The screen tested about 24,000 reagents; below is a random part of those that have a named target and a result. Over the whole deposit, about 1,210 (5%) were called active. 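Inactive calls also include excluded dsRNAs with several or no targets, genes unexpressed in JW18, and well A1, regardless of score.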 A plus sign joins genes that one reagent is predicted to hit.
gene,DRSC id,"Wolbachia per cell robust z, rep 1","Wolbachia per cell robust z, rep 2","Wolbachia per cell robust z, rep 3",Outcome
tbrd-2,DRSC07020,-0.0367,1.27,0.649,inactive
CG4884,DRSC15671,0.441,-0.563,-0.59,inactive
CG4884,DRSC26329,0.842,0.944,-0.0397,inactive
nocte,DRSC18123,0.481,-0.563,0.285,inactive
nocte,DRSC28453,0.224,-0.021,-0.673,inactive
CG42287,DRSC40611,0.469,-0.876,-1.72,inactive
eIF4H1,DRSC20276,0.614,0.965,1.56,inactive
Rpt6,DRSC20571,1.38,0.7,1.11,inactive
Rpt6,DRSC27933,-0.91,-1.5,-0.423,inactive
CG18577,DRSC15352,-0.0893,-0.398,0.143,inactive
asRNA:CR43469 + Balat,DRSC06852,-1.55,0.482,0.118,inactive
eEF5,DRSC04681,0.0312,-0.0219,-5.94,inactive
tud,DRSC04719,-0.239,-0.517,0.555,inactive
CG32762,DRSC18298,1.13,-4.19,0.823,inactive
CG32762,DRSC24339,0.402,0.438,-7.76,inactive
CG32095,DRSC22615,-1.96,0.39,-0.408,inactive
CG18661,DRSC02690,-3.35,0.73,-1.34,inactive
CG11227,DRSC20476,-1.14,-0.925,-1.63,inactive
CG11227,DRSC29906,-0.179,-0.408,-0.783,inactive
CG15498,DRSC15040,-0.873,-0.678,-0.864,inactive
Rpt5,DRSC16842,3.18,1.86,2.12,active
Rpt5,DRSC26269,2.34,1.99,1.95,active
CG5421,DRSC02858,-0.494,0.713,-1.78,inactive
CG5421,DRSC24636,-14.3,-0.53,0.31,inactive
LSm7,DRSC02251,1.72,0.674,-4.74,inactive
PIG-L,DRSC15577,0.921,1.66,0.529,inactive
PIG-L,DRSC24921,-2.13,-1.79,0.0988,active
dlg1,DRSC18896,-2.28,-7.93,2.44,active
dlg1,DRSC19767,0.852,0.999,0.245,inactive
dlg1,DRSC20324,-1.43,-0.0247,-0.129,inactive
dlg1,DRSC29546,-0.599,-0.0299,0.353,inactive
Irk1,DRSC14686,0.965,-1.33,0.856,inactive
Irk1,DRSC16106,0.932,-0.859,-6.06,inactive
Irk1,DRSC28063,-0.62,0.653,-0.389,inactive
obst-F,DRSC10805,0.437,-0.675,0.874,inactive
obst-F,DRSC30097,-1.5,-0.631,-0.705,inactive
CG42753,DRSC41401,-0.569,0.632,-1.02,inactive
CG17169,DRSC20905,2.31,1.11,1.76,inactive
asRNA:CR43430 + hts,DRSC07629,-3.12,0.655,0.956,inactive
wupA,DRSC20385,-2.42,-5.77,-1.99,inactive
wupA,DRSC22547,0.975,0.992,1.5,inactive
wupA,DRSC29330,-0.812,0.0922,-1.4,inactive
yin,DRSC18854,-0.684,-1.62,0.234,inactive
yin,DRSC21889,-2.03,-0.919,-0.382,inactive
yin,DRSC38664,-0.182,0.88,-0.701,inactive
CG11882,DRSC14425,0.143,0.545,1.1,inactive
CG11882,DRSC27909,-0.391,-1.67,-1.31,inactive

Reagents listed above with an active call, once more:
gene,DRSC id,"Wolbachia per cell robust z, rep 1","Wolbachia per cell robust z, rep 2","Wolbachia per cell robust z, rep 3",Outcome
Rpt5,DRSC16842,3.18,1.86,2.12,active
Rpt5,DRSC26269,2.34,1.99,1.95,active
PIG-L,DRSC24921,-2.13,-1.79,0.0988,active
dlg1,DRSC18896,-2.28,-7.93,2.44,active
